Library screen at single concentrations

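Growth of Mycobacterium tuberculosis over 4 days (cholesterol / DPPC medium with tyloxapol); the read-out is not stated. Compounds at 500 µM. Higher reads as more growth inhibition (inferred: compounds with an IC50 in retests scored well above the rest). Size under these conditions: about 18,000 compounds, about 900 of them at 50% or above in at least one test.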

Each number is a percent effect as filed.
How 0% and 100% were set is not recorded. Most values in the screen are low, and negative values occur.
Many other results are left out here, so strong results are more common than in the screen.

* COC(=O)CSc1nc(N)c2ccsc2n1 : 99.43%
* COCCC1CN(C(=O)c2nc(C)c[nH]2)CCO1 (centres unmarked) : 5.606%
* Cc1nc(C(=O)NCCN2CCCCC2CO)cs1 (centres unmarked) : -6.904%
* Cc1nccn1CCCN1CCN(C)C(CCO)C1 (centres unmarked) : 14.21%
* O=C(c1ccc(CN2CCSCC2)cc1)N1CCCC1 : 11.3%
* CCC(CO)NS(=O)(=O)c1ccc(C)cc1 (centres unmarked) : 3.732%
* CS(=O)(=O)Cc1ccc(C(=O)Nc2ccccc2)cc1 : -2.463%
* CN(C)C(=O)C1CSc2ccccc21 (centres unmarked) : 37.75%
* COC(=O)CCc1nnc(N)s1 : -6.943%
* OCCC1(NCC(F)(F)F)CCOCC1 : -9.939%
* Nc1ccc(C(=O)NCC2(Cn3cccn3)CC2)cn1 : 0.1383%
* c1ccc(OCCCOC2CNC2)cc1 : 50.42%
* COc1ccc(C2=NOC(C(=O)NC(C)C)C2)cc1 (centres unmarked) : 6.842%
* COC(CNC(=O)NCC(C)(C)O)c1cccc(Cl)c1 (centres unmarked) : -7.01%
* CCN(Cc1ccn(CC)n1)[C@H]1COC[C@@H]1O : 13.98%
* CCCn1nnc(NC(=O)c2cccnc2)n1 : 13.71%
* CCc1nnc(N2CCN(S(C)(=O)=O)CC2)o1 : 19.09%
* NC(=O)CSc1nnc(-c2cc(Br)ccc2O)[nH]1 : 70.39%
* CCN(CC)CCOC1CNC1 : -7.015%
* Cc1cccc2nc(C(=O)NCCOCCO)c(F)n12 : 7.043%
* CN1CCc2nc(NC(=O)CC(C)(C)C)sc2C1 : 53.16%
* Cc1ccc(C(=O)CCN2CCOCC2C(N)=O)cc1 (centres unmarked) : 102.9%
* CC(CN)c1nncn1C (centres unmarked) : -3.399%
* OCC(O)CSCc1nc(-c2ccc(Cl)cc2)no1 (centres unmarked) : 73.82%
* COCCNS(=O)(=O)c1cn[nH]c1C : 3.958%
* COc1ccc(NC(=O)Cn2ccnc2)c(OC)c1 : 8.343%
* CCn1c(SCC(=O)NC)nc2ccccc2c1=O : -9.895%
* CCOc1cccc(CNS(C)(=O)=O)c1 : 37.95%
* CCOc1ccc(Cl)cc1CNc1nnnn1C : 24.21%
* CCNS(=O)(=O)C1CCN(Cc2c(F)cccc2F)C1 (centres unmarked) : 14.88%
* CNc1nc(C(=O)NC2COc3ccccc3C2)cs1 (centres unmarked) : 74.44%
* Cc1cccc(OCC(O)CN)c1 (centres unmarked) : 29.65%
* O=C(CO)N1CCCC(CCc2ccccc2F)C1 (centres unmarked) : 48.21%
* C1COC(CN2CCCNCC2)C1 (centres unmarked) : -1.602%
* CC(C)(C)CC(=O)N1CCCCC1CN (centres unmarked) : 7.001%
* CN(C)CCNC(=O)c1ccc(F)cc1 : 7.321%
* CC(O)c1ccc2c(c1)CC(=O)N2 (centres unmarked) : 2.155%
* Cc1ccc(OCC(=O)N(C)C)c(C)c1 : 27.45%
* CN(C)C[C@@H]1[C@H]2CN(Cc3ccc(CO)o3)C[C@@H]12 : -4.349%
* CSCc1noc(CN2CCN(C3CCNC3)CC2)n1 (centres unmarked) : -6.871%
* CCC1(CO)CCCN(C(=O)c2ccc(COC)s2)C1 (centres unmarked) : 57.01%
* O=C(CNc1ccccc1F)N1CCCCC1 : 77.01%
* CC(N)CCc1ccc2c(c1)OCO2 (centres unmarked) : 51.74%
* Cc1ccc(F)cc1CC(=O)N1CC[C@H](O)[C@@H](O)C1 : 2.414%
* O=C(NCc1nccs1)c1csc(NC2CC2)n1 : 23.69%
* Cc1ccccc1C(=O)N1CCC2(CC1)OCC(C)O2 (centres unmarked) : 10.8%
* COC(=O)CC1CN(CCc2ccccn2)CCO1 (centres unmarked) : -2.079%
* Cc1nccn1CCC(=O)Nc1sccc1C#N : -19.34%
* Cc1nc(C)c(CC(=O)NCc2snnc2C)c(=O)[nH]1 : -6.067%
* COc1c(CNCCS(C)(=O)=O)c(C)nn1C : 3.786%
* CNC(=O)c1noc(CN(C)CC2CCC2)n1 : 24.14%
* CNC(=O)Cc1ccc(-c2ccc(F)c(CO)c2)cc1 : -0.5293%
* NC(=O)NC(=O)CN1CCOC(c2ccc(F)cc2)C1 (centres unmarked) : -6.585%

Repeated from the top, 6 entries:

COC(=O)CSc1nc(N)c2ccsc2n1 read 99.43%.
COCCC1CN(C(=O)c2nc(C)c[nH]2)CCO1 (centres unmarked) read 5.606%.
Cc1nc(C(=O)NCCN2CCCCC2CO)cs1 (centres unmarked) read -6.904%.
Cc1nccn1CCCN1CCN(C)C(CCO)C1 (centres unmarked) read 14.21%.
O=C(c1ccc(CN2CCSCC2)cc1)N1CCCC1 read 11.3%.
CCC(CO)NS(=O)(=O)c1ccc(C)cc1 (centres unmarked) read 3.732%.

From ChEMBL document CHEMBL3988442, “University of Dundee, Small-Polar-MMV Screening Library” (2021).